# This is a selection; strong and weak results do not stand in their true shares. Inconclusive results are not listed. For some assays here: Measured potencies and affinities stand elsewhere. Active and inactive are the calls of the source.
# Protein sequences, listed by entry. Tags and fused reporters are not part of them. Lines headed by an entry give the natural chain unless they say otherwise; changes in a name come on top.
# UniProt Q27686: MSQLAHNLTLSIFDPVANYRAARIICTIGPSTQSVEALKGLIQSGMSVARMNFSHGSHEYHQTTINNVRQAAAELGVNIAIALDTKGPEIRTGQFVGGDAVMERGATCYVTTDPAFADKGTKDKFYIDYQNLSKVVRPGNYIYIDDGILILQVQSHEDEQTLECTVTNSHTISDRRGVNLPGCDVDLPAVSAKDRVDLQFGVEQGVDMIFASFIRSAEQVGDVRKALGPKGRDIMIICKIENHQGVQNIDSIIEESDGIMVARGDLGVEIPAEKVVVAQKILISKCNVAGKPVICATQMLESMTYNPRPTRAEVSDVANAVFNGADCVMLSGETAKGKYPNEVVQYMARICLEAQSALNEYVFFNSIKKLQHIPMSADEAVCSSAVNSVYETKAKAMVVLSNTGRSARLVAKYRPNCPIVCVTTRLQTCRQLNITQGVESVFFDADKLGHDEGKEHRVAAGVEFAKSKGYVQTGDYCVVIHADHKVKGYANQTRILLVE
# UniProt P09992: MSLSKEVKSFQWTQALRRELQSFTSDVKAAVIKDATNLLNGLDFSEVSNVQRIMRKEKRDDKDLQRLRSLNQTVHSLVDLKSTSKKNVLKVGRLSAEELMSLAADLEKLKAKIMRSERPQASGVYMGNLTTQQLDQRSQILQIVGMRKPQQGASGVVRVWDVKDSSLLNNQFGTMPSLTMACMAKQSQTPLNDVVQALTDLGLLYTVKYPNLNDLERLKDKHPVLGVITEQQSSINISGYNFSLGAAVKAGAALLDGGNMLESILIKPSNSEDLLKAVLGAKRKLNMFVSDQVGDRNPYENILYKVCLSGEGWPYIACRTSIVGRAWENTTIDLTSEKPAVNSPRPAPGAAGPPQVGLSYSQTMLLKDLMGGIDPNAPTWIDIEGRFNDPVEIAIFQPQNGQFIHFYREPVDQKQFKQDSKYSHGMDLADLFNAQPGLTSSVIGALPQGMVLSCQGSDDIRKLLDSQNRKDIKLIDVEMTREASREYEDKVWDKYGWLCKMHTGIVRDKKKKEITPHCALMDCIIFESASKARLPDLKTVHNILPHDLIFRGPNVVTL
# Assays:
# [1] = tested on: Zika virus NS2B-NS3 protease (unlinked complex); assay: Primary screen GU Rhodamine qHTS for Zika virus inhibitors: Unlinked NS2B-NS3 protease assay (AID 1347159); settings: Recombinant ZIKV NS2B-NS3 protease, Rhodamine110 substrate fluorescence; at 107 µM (top of the series); also: % is scaled to controls: 0 for no effect and ±100 for the full control effect; nearly all actives have a fitted effect of over 60% in size
# Procedure, shortened: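 Noncovalent NS2B hydrophilic domain–NS3 protease domain complex (25 nM) preincubated 15 min at room temperature with compounds (up to 114 microM) in 10 mM Tris-HCl pH 8.0, 0.01% Tween 20; 1.5 microM Rhodamine110 substrate added, fluorescence change over 15 min fitted to Hill equation.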
# [2] = tested on: Zika virus NS2B-NS3 protease (linked construct); assay: Primary screen NINDS Rhodamine qHTS for Zika virus inhibitors (AID 1347160); settings: purified NS2B-NS3 protease, Rhodamine110 substrate fluorescence; activity change, negative = inhibition: at 57.1 µM (top of the series); also: % is scaled to controls: 0 for no effect and ±100 for the full control effect; nearly all actives have a fitted effect of over 55% in size
# Procedure, shortened: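 Purified linked NS2B-NS3 protease (NS2B hydrophilic domain joined to NS3 protease by flexible linker), 25 nM in 10 mM Tris-HCl pH 8.0, 0.01% Tween 20. Compounds titrated, 15 min preincubation at room temperature; 1.5 microM Rhodamine110 substrate, FITC fluorescence change over 15 min.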
# [3] = Cytotoxicity counterscreen for inhibitors of SARS-CoV-2 cell entry (AID 1645845; calls by dose curve; also: % is scaled to controls: 0 for no effect and ±100 for the full control effect; nearly all actives have a fitted effect of over 50% in size); settings: cell viability (SARS-CoV-2 entry assay cells); at 57.1 µM (top of the series)
# [4] = biological target: Pyruvate kinase (Leishmania mexicana) (UniProt Q27686); assay: qHTS Validation Assay for Inhibitors of Leishmania Mexicana Pyruvate Kinase (AID 945);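 also: 0% = DMSO only neutral control wells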; settings: purified L. mexicana pyruvate kinase, enzyme activity, E451W mutant enzyme; at 57.5 µM (top of the series)
# Procedure, shortened: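 LmPYK E451W 0.2 nM; 0.5 mM PEP, 0.1 mM ADP, 7 mM MgCl2, 50 mM KCl, imidazole pH 7.2, 0.01% Tween 20, 0.05% BSA; 1 h RT; PKLight luminescence; DMSO-normalized.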
# [5] = qHTS profiling of the MIPE4 collection as inhibitors of Plasmodium falciparum (3D7) proliferation (AID 743344; call rule not given here;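 also: scaled between DMSO vehicle wells and 0.29 µM artemisinin as full inhibition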); settings: P. falciparum 3D7 in erythrocytes, SYBR Green DNA fluorescence, 72 h; at 28.5 µM (top of the series)
# [6] = qHTS profiling of the MIPE4 collection as inhibitors of Plasmodium falciparum (DD2) proliferation (AID 743345; call rule not given here); settings: P. falciparum Dd2 in erythrocytes, SYBR Green DNA, 72 h; at 28.5 µM (top of the series)
# [7] = qHTS profiling of the MIPE4 collection as inhibitors of Plasmodium falciparum (DD2) proliferation (Rep 2) (AID 743346; call rule not given here); settings: P. falciparum Dd2 in erythrocytes, SYBR Green DNA, 72 h; at 28.5 µM (top of the series)
# [8] = qHTS profiling of the MIPE4 collection as inhibitors of Plasmodium falciparum (HB3) proliferation (AID 743347; call rule not given here;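 also: plate controls were DMSO vehicle wells for no effect and artemisinin wells for full effect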); settings: P. falciparum HB3 in erythrocytes, SYBR Green DNA, 72 h; at 28.5 µM (top of the series)
# [9] = qHTS assay for measurement of the activity of small molecule inhibitors on Zika virus induced Caspase-3 activity in human iPSC derived neural progenitor cells (hNPCs) (AID 1224857); settings: hNPCs ZIKV-induced caspase-3/7, Caspase-Glo luminescence, 6 h; at 45.7 µM (top of the series) unless noted; also: % of control where 0% means no effect; nearly all actives have a fitted effect of over 65% in size
# [10] = qHTS assay for measurement of the activity of small molecule inhibitors on Zika virus induced Caspase-3 activity in human astrocytoma cells (AID 1224859); settings: SNB-19 ZIKV-induced caspase-3/7, luminescence, 6 h; at 45.7 µM (top of the series) unless noted;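 also: plate controls were ZIKV-infected untreated cells for no effect and uninfected cells for full effect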
# [11] = NS1 protein of Zika virus - qHTS assay to identify small molecule inhibitors in human HEK 293 cells (AID 1347053); settings: HEK293 ZIKV MR766 infection, NS1 TR-FRET, 24 h; at 46.1 µM (top of the series) unless noted;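 also: plate controls were infected untreated cells for no effect and uninfected cells for full effect; nearly all actives have a fitted effect of over 55% in size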
# [12] = qHTS for Inhibitors of the Functional Ribonucleoprotein Complex (vRNP) of Lassa (LASV) Arenavirus: LASV Primary Screen - GLuc reporter signal (AID 1347082; calls by dose curve; tested in HEK293 reporter line; also: % is scaled to controls: 0 for no effect and ±100 for the full control effect; nearly all actives have a fitted effect of over 60% in size); settings: LASV minigenome vRNP, Gaussia luciferase reporter; at 57.5 µM (top of the series) unless noted
# [13] = qHTS for Inhibitors of the Functional Ribonucleoprotein Complex (vRNP) of Lassa (LASV) Arenavirus: Viability assay - alamar blue signal for LASV Primary Screen (AID 1347083; calls by dose curve; tested in HEK293 reporter line; also: % is scaled to controls: 0 for no effect and ±100 for the full control effect; nearly all actives have a fitted effect of over 80% in size); settings: cell viability, alamar blue fluorescence (LASV minigenome counter-screen); at 57.5 µM (top of the series) unless noted
# [14] = qHTS for Inhibitors of the Functional Ribonucleoprotein Complex (vRNP) of Lymphocytic Choriomeningitis Arenaviruses (LCMV): Viability assay - alamar blue signal for LCMV Primary Screen (AID 1347085; calls by dose curve; tested in HEK293 reporter line; also: % is scaled to controls: 0 for no effect and ±100 for the full control effect; nearly all actives have a fitted effect of over 80% in size); settings: alamar blue viability counter-screen, LCMV vRNP screen cells; at 57.5 µM (top of the series) unless noted
# [15] = biological target: Nucleoprotein (Lymphocytic choriomeningitis virus (strain Armstrong)) (UniProt P09992); assay: qHTS for Inhibitors of the Functional Ribonucleoprotein Complex (vRNP) of Lymphocytic Choriomeningitis Arenaviruses (LCMV): LCMV Primary Screen - GLuc reporter signal (AID 1347086; calls by dose curve; also: % is scaled to controls: 0 for no effect and ±100 for the full control effect; nearly all actives have a fitted effect of over 70% in size); settings: LCMV minigenome vRNP cell assay, Gaussia luciferase reporter; at 57.5 µM (top of the series) unless noted
# [16] = Ebola virus entry assay, ratio channel
# [17] = Ebola virus entry assay, green channel fluorescence
# [18] = tested on: Zika virus NS2B-NS3 protease; assay: Primary screen GU AMC qHTS for Zika virus inhibitors (AID 1347154); settings: Zika NS2B-NS3 unlinked protease, AMC fluorogenic substrate; at 54.1 µM (top of the series) unless noted;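 also: 0% = no-inhibitor control and -100% = no-enzyme control; nearly all actives have a fitted effect of over 70% in size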
# [19] = Primary qHTS for inhibitors of La Crosse Virus (LACV) - induced cell death in SH-SY5Y cells (AID 1508616); settings: SH-SY5Y LACV cytopathicity rescue, ATP luminescence, 6 d; at 9.63 µM (top of the series) unless noted;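 also: top concentration of the series differs between compounds; 0% = infected DMSO wells and 100% = uninfected DMSO wells; higher means more rescue of cells from virus-induced death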
# Procedure, shortened: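 Luminescent ATP readout (ATPLite 1step, 5 min room temperature) measured rescue from LACV-induced death after 6 days of infection at 0.01 MOI; normalized to infected DMSO wells and uninfected DMSO wells.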
smiles,measurement,setting,value
CCn1c(=O)n([C@@H]2CCN(CC3CCCCCCC3)C[C@H]2CO)c2ccccc21,"activity change, negative = inhibition",[1],inactive: -7.46%
same,"activity change, negative = inhibition",[2],inactive: 62%
same,"activity change, negative = cytotoxicity",[3],inactive: -10.1%
CN(C(=O)Cc1ccc(Cl)c(Cl)c1)[C@@H]1CC[C@@]2(CCCO2)C[C@H]1N1CCCC1,"activity change, negative = inhibition",[4],inactive: 6.17%
CCn1c(=O)n([C@@H]2CCN(CC3CCCCCCC3)C[C@@H]2CO)c2ccccc21,"parasite growth, % of DMSO control",[5],9.33%
same,"parasite growth remaining, % of DMSO control (lower = more inhibition)",[6],24.9%
same,"parasite growth, % of control (lower = inhibition)",[7],23.7%
same,"growth, % of control",[8],10.1%
same,"activity change, negative = inhibition",[9],inactive: 34.7%
same,"activity change, negative = inhibition",[10],inactive: 19.6%
same,"activity change, negative = inhibition",[11],inactive: -3.84%
same,"activity change, negative = inhibition",[12],inactive: -0.308%
same,"activity change, negative = reduced viability",[13],inactive: 0.683%
same,"activity change, negative = lower viability",[14],inactive: 11.9%
same,"activity change, negative = inhibition",[15],inactive: -2.57%
CCNC(C)Cc1ccc2c(c1)OCO2 (stereo unspecified),outcome,[16],inactive
same,outcome,[17],inactive
same,"activity change, negative = inhibition",[9],inactive: 9.97% [at 92.8 µM]
same,"activity change, negative = inhibition",[10],inactive: -28.4% [at 92.8 µM]
same,"activity change, negative = inhibition",[11],inactive: -20% [at 92.8 µM]
same,"activity change, negative = inhibition",[12],inactive: 3.81% [at 115 µM]
same,"activity change, negative = reduced viability",[13],inactive: 8.86% [at 115 µM]
same,"activity change, negative = lower viability",[14],inactive: 10.2% [at 115 µM]
same,"activity change, negative = inhibition",[15],inactive: 7.08% [at 115 µM]
same,"activity change, negative = inhibition",[18],inactive: 2.1% [at 104 µM]
same,activity change,[19],inactive: -16.4%

# From PubChem BioAssay (NCATS)
